Measured values published in US20170029451A1, “BRANCHED CHAIN ACYCLIC NUCLEOSIDE PHOSPHONATE ESTERS AND METHODS OF SYNTHESIS AND USES THEREOF” (CHIMERIX, INC., priority 2013, published 2017).

Columns and labels:
Conditions in all cases: CC50/EC50, human foreskin fibroblast cells
[1] = system: Herpes Simplex Virus 1 (Strain E-377); assay: Plaque reduction assay, HSV-1 in human foreskin fibroblast cells; type: cell-based
[2] = system: Vaccinia Virus (Strain Copenhagen); type: cell-based
[3] = system: Cowpox Virus (Strain Brighton); type: cell-based
HCMV (Strain AD169) = assay: Plaque reduction assay, HCMV AD169 in human foreskin fibroblast cells; type: cell-based, Human Cytomegalovirus (HCMV)

Row | SMILES | HSV-1 SI50 [1] | VACV SI50 [2] | CPXV SI50 [3] | HCMV SI50 (HCMV (Strain AD169))
1 | Nc1nc2c(ncn2COCCO)c(=O)[nH]1 [Acyclovir, reference compound] | >45 |  |  | 
2 | Nc1ccn(C[C@@H](CO)OCP(=O)(O)O)c(=O)n1 [Cidofovir, reference compound] |  | >13 | >10 | 
3 | CC(C)CCCCCCCCCCCCCCOCCCOP(=O)(O)COC(CO)Cn1ccc(=O)[nH]c1=O (centres unmarked) [Compound 12] | 1 | 1 | 1 | >961
4 | Nc1nc(O)c2ncn(COC(CO)CO)c2n1 [Ganciclovir, reference compound] |  |  |  | >67
